Pooled drug test results. Numbers come from NIAID ChemDB, via PubChem.

Shared fields: host cell toxicity; cells: MT-2; endpoint: CC50

Rows are shuffled and stem from different studies. CCn: concentration that lowers growth or viability of the cells by n%.

| smiles | result |
|---|---|
| Nc1nc(NC2CC2)c2ncn([C@H]3CC[C@@H](CO)O3)c2n1 | >20 µM |
| C[C@H](Cn1cnc2c(N)ncnc21)OCP(=O)(OCOC(=O)NC(C)(C)C)OCOC(=O)NC(C)(C)C | 10 µM |
| CN1CC=C(CC2(CC3=CCN(C)CC3)c3ccccc3-c3ccccc32)CC1 | >130 µM |
| CSc1ccc2c(c1)N=C(N1CCNCC1)c1ccccc1N2 | 17 µg/mL |
| CCc1c(Sc2ccccc2)n(COCc2ccccc2)c(=O)[nH]c1=O | 19 ± 3 µM |
| Cc1cn([C@H]2C[C@H](N=[N+]=[N-])[C@@H](CO)O2)c(=O)[nH]c1=O | 38 µg/mL |
| CC(C)CN(C[C@@H](O)[C@H](Cc1ccccc1)NC(=O)O[C@H]1CCOC1)S(=O)(=O)c1ccc(N)cc1 | >100 µM |
| O=C1N(Cc2ccc(CO)cc2)[C@H](Cc2ccccc2)[C@H](O)[C@@H](O)[C@@H](Cc2ccccc2)N1Cc1ccc(CO)cc1 | 61.5 µM |
| Cc1c(O)cccc1C(=O)N[C@@H](CSc1ccccc1)[C@H](O)CN1C[C@H]2CCCC[C@H]2C[C@H]1C(=O)NC(C)(C)C | >10 µM |
| CC(C)CN(C[C@@H](O)[C@H](Cc1ccccc1)NC(=O)O[C@H]1CCOC1)S(=O)(=O)c1ccc(N)cc1 | 48.2 µM |
| O=c1[nH]cnc2c1ncn2[C@H]1CC[C@@H](CO)O1 | >>100 µM |
| COc1cccc(CN2C(=O)N(Cc3cccc(C(=O)Nc4ccccn4)c3)[C@H](Cc3ccccc3)[C@H](O)[C@@H](O)[C@H]2Cc2ccccc2)c1 | >50 µM |
| Cc1cn([C@H]2C[C@H](N=[N+]=[N-])[C@@H](CO)O2)c(=O)[nH]c1=O | >25 µM |
| CN1CC=C(CC2(CC3=CCN(C)CC3)C(=O)N(c3ccccc3)c3ccccc32)CC1 | >100 µM |
| Cc1cn([C@H]2C[C@H](F)[C@@H](COP(=O)(O)O)O2)c(=S)[nH]c1=O | >200 µM |
| COc1ccc(S(=O)(=O)N(CC(C)C)C[C@@H](O)[C@H](Cc2ccccc2)NC(=O)O[C@H]2CO[C@H]3OCC(F)(F)[C@H]32)cc1 | 17.5 µM |
| CCCc1cc(=O)oc2c3c(c4c(c12)OC(C)(C)C=C4)O[C@H](C)[C@@H](C)[C@@H]3O | 8.9 µM |
| COC(=O)[C@H](C)NP(=O)(OCC1C/C1=C\n1cnc2c(N)ncnc21)Oc1ccccc1 | 24 µM |
| O=S1(c2ccccc2)=NC(=S)Nc2ccc(Cl)cc21 | 91 µM |
| COC(=O)C(=O)OC1(C(=O)O)C[C@@H](OC(=O)/C=C/c2ccc(O)c(O)c2)C(O)[C@H](OC(=O)/C=C/c2ccc(O)c(O)c2)C1 | >350 µg/mL |
| COc1cccc(CN2C(=O)N(Cc3cccc(C(=O)Nc4cccc(C)n4)c3)[C@H](Cc3ccccc3)[C@H](O)[C@@H](O)[C@H]2Cc2ccccc2)c1 | >50 µM |
| O=C(/C=C/c1ccc(O)c(O)c1)O[C@@H]1CC(O)(C(=O)O)C[C@@H](OC(=O)/C=C/c2ccc(O)c(O)c2)C1O | >150 µg/mL |
| Nc1ccn([C@H]2CC[C@@H](CO)O2)c(=O)n1 | 4 µM |
| Cc1cn([C@H]2C[C@H](N=[N+]=[N-])[C@@H](CO)O2)c(=O)[nH]c1=O | 137 µg/mL |
| Nc1nc(N)c2ncn([C@H]3C=C[C@@H](CO)O3)c2n1 | >20 µM |
| Cc1nc2n(c(=O)c1CCN1CCC(c3noc4cc(F)ccc34)CC1)CCCC2 | 15 µg/mL |
| Nc1ccn([C@H]2CC[C@@H](CO)O2)c(=O)n1 | 60 µg/mL |
| Nc1ccn([C@H]2CC[C@@H](CO)O2)c(=O)n1 | >32 µM |
| CC(C)=CCN1Cc2cccc3[nH]c(=S)n(c23)C[C@@H]1C | >50 µM |
| Cc1cn([C@H]2C[C@H](N=[N+]=[N-])[C@@H](CO)O2)c(=O)[nH]c1=O | 475 µM |
| Nc1cccc(CN2C(=O)N(Cc3cccc(C(=O)Nc4cnccn4)c3)[C@H](Cc3ccccc3)[C@H](O)[C@@H](O)[C@H]2Cc2ccccc2)c1 | >50 µM |
| CN1CCN(C2=c3cc(O)ccc3=Nc3ccc(Cl)cc3N2O)CC1 | >100 µg/mL |
| Nc1cccc(CN2C(=O)N(Cc3cccc(C(=O)Nc4ncc[nH]4)c3)[C@H](Cc3ccccc3)[C@H](O)[C@@H](O)[C@H]2Cc2ccccc2)c1 | >50 µM |
| COc1ccc(S(=O)(=O)N(CC(C)C)C[C@@H](O)[C@H](Cc2ccc(OC)c(Cl)c2)NC(=O)O[C@H]2CO[C@H]3OCC[C@H]32)cc1 | 35.7 µM |
| O=C1N=S(=O)(c2ccccc2)c2ccccc2N1 | >365 µM |
| COc1cc(CN2C(=O)N(Cc3cccc(C(=O)Nc4cnccn4)c3)[C@H](Cc3ccccc3)[C@H](O)[C@@H](O)[C@H]2Cc2ccccc2)cc(OC)c1 | >50 µM |
| CC(C)(C)NC(=O)[C@@H]1C[C@@H]2CCCC[C@@H]2CN1C[C@@H](O)[C@H](Cc1ccccc1)NC(=O)[C@H](CC(N)=O)NC(=O)c1ccc2ccccc2n1 | >10 µM |
| CC(C)CN(C[C@@H](O)[C@H](Cc1ccccc1)NC(=O)O[C@H]1CCOC1)S(=O)(=O)c1ccc(N)cc1 | >100 µM |
| CCN1CC=C(CC2(CC3=CCN(CC)CC3)C(=O)N(c3ccccc3)c3ccccc32)CC1 | >95 µM |
| O=c1[nH]cnc2c1ncn2[C@H]1CC[C@@H](CO)O1 | >100 µM |
| Cc1cccc(C)c1OCC(=O)N[C@@H](Cc1ccccc1)[C@@H](O)C[C@H](Cc1ccccc1)NC(=O)[C@H](C(C)C)N1CCCNC1=O | 26.8 µM |
| O=S1(c2ccccc2)=NC(=S)Nc2ccccc21 | 175 µM |
| COc1cc(CN2C(=O)N(Cc3cccc(C(=O)Nc4ccc(C)cn4)c3)[C@H](Cc3ccccc3)[C@H](O)[C@@H](O)[C@H]2Cc2ccccc2)cc(OC)c1 | >50 µM |
| Nc1ccn([C@H]2CC[C@@H](CO)O2)c(=O)n1 | 176.3 µM |
| C[C@H](Cn1cnc2c(N)ncnc21)OCP(=O)(O)O | 1250 µM |
| Nc1nc2c(ncn2[C@H]2C=C[C@@H](CO)O2)c(=O)[nH]1 | 47 µM |
| O=C(/C=C/c1ccc(O)c(O)c1)O[C@@H]1CC(O)(C(=O)O)C[C@@H](OC(=O)/C=C/c2ccc(O)c(O)c2)C1O | >150 µg/mL |
| Cc1ccnc2c1NC(=O)c1cccnc1N2C1CC1 | >100 µM |
| Cc1ccc2c(c1)C(CC1CCN(C)CC1)(CC1CCN(C)CC1)c1ccccc1-2 | 72 µM |
| O=C(Nc1cnccn1)c1cccc(CN2C(=O)N(Cc3cccc(C(=O)Nc4cnccn4)c3)[C@H](Cc3ccccc3)[C@H](O)[C@@H](O)[C@H]2Cc2ccccc2)c1 | >50 µM |
| C[C@@H]1C[C@@H]([C@H](O)CC2CC(=O)NC(=O)C2)C(=O)[C@@H](C)C1 | 1 µg/mL |
| Cc1cn([C@H]2C[C@H](F)[C@@H](CO)O2)c(=S)[nH]c1=O | >200 µM |
| Nc1ccn([C@H]2CC[C@@H](CO)O2)c(=O)n1 | 32 µM |
| [Li+] | >200 µg/mL |
| COC(=O)[C@H](C)NP(=O)(OC[C@H]1C/C1=C\n1cnc2c(=O)[nH]c(N)nc21)Oc1ccccc1 | >100 µM |
| Nc1nc(N)c2ncn([C@H]3CC[C@@H](CO)O3)c2n1 | >20 µM |
| O=c1cc(-c2ccc(O)cc2)oc2cc(O[C@@H]3O[C@H](CO)[C@@H](O)[C@H](O)[C@H]3OS(=O)(=O)O)cc(O)c12 | >800 µM |
| COc1cc(CN2C(=O)N(Cc3cccc(C(=O)Nc4cccc(C)n4)c3)[C@H](Cc3ccccc3)[C@H](O)[C@@H](O)[C@H]2Cc2ccccc2)cc(OC)c1 | >50 µM |
| O=C1N(c2ccccc2)c2ccccc2C1(CCc1cccnc1)CCc1cccnc1 | 99 µM |
| COc1cccc(CN2C(=O)N(Cc3cccc(C(=O)Nc4cnccn4)c3)[C@H](Cc3ccccc3)[C@H](O)[C@@H](O)[C@H]2Cc2ccccc2)c1 | >50 µM |
| O=C(/C=C/c1ccc(O)c(O)c1)O[C@@H]1C[C@](OC(=O)/C=C/c2ccc(O)c(O)c2)(C(=O)O)C[C@@H](O)[C@H]1O | >150 µg/mL |

A second listing of 9 rows from above:

smiles | result
Cc1ccc2c(c1)C(CC1CCN(C)CC1)(CC1CCN(C)CC1)c1ccccc1-2 | 72 µM
O=C1N(c2ccccc2)c2ccccc2C1(CCc1cccnc1)CCc1cccnc1 | 99 µM
Cc1cccc(C)c1OCC(=O)N[C@@H](Cc1ccccc1)[C@@H](O)C[C@H](Cc1ccccc1)NC(=O)[C@H](C(C)C)N1CCCNC1=O | 26.8 µM
O=C(/C=C/c1ccc(O)c(O)c1)O[C@@H]1CC(O)(C(=O)O)C[C@@H](OC(=O)/C=C/c2ccc(O)c(O)c2)C1O | >150 µg/mL
Cc1cn([C@H]2C[C@H](N=[N+]=[N-])[C@@H](CO)O2)c(=O)[nH]c1=O | 38 µg/mL
Nc1cccc(CN2C(=O)N(Cc3cccc(C(=O)Nc4ncc[nH]4)c3)[C@H](Cc3ccccc3)[C@H](O)[C@@H](O)[C@H]2Cc2ccccc2)c1 | >50 µM
COc1cccc(CN2C(=O)N(Cc3cccc(C(=O)Nc4cccc(C)n4)c3)[C@H](Cc3ccccc3)[C@H](O)[C@@H](O)[C@H]2Cc2ccccc2)c1 | >50 µM
C[C@H](Cn1cnc2c(N)ncnc21)OCP(=O)(OCOC(=O)NC(C)(C)C)OCOC(=O)NC(C)(C)C | 10 µM
O=C1N=S(=O)(c2ccccc2)c2ccccc2N1 | >365 µM